Results of unrelated studies side by side (data: NIAID ChemDB).

Common to all: tests in culture; organism: HIV-1; measure: EC50

Blank or dashed fields: not listed here. Two numbers with a dash give a range or band. ECn is the concentration giving n% inhibition of infection, replication or growth. Conditions beyond the fields shown may differ between rows.

structure	strain or isolate	cell line	changes	result
CN1N=C(N)c2cn([C@@H]3O[C@H](COP(=O)(O)O)[C@@H](O)[C@H]3O)c3ncnc1c23				0.01 µM
CC(=O)Oc1ccccc1C(=O)N(C(=S)OCCOc1ccccc1)c1ccccc1				9.5 µM
O=S(=O)(NCCNC/C=C/c1ccc(Br)cc1)c1cccc2cnccc12	LAI			>16.7 µM
CCOC(=O)N1CCC(=C(c2cc(Cl)c(OC)c(C(=O)OC)c2)c2cc(Cl)c(OC)c(C(=O)OC)c2)CC1	RF	CEM + CEM-SS		1.26 µM
CCC(O)c1cnc(Nc2ccc(C#N)cc2)nc1Nc1c(C)cc(/C=C/C#N)cc1C	IIIB	MT-4		0.01778 µM
O=c1[nH]c(=O)n(CC=C(CO)CO)cc1I				>100 µg/mL
C[C@H]1CC[C@H](C(F)(F)F)N1C[C@@H](O)[C@H](Cc1ccccc1)NC(=O)[C@H](CC(N)=O)NC(=O)c1ccc2ccccc2n1		PBL		0.68 µM
CCCc1c(OC2CCCC2)c2cc(C#N)ccc2[nH]c1=O		MT-4		0.082 µM
O=S1(=O)Nc2ccc(Cl)cc2C(C#CC2CC2)(C2CC2)N1	RF	MT-2		<0.279 µM
CNc1ncnc2c1ncn2[C@@H]1S[C@H](CO)C[C@@H]1N=[N+]=[N-]		MT-4		>100 µM
CCOCn1c2c(c(=O)[nH]c1=O)Cc1ccccc1C2	IIIB	C8166		>5 µM
NC(=O)C[C@H](NC(=O)c1ccc2ccccc2n1)C(=O)N[C@@H](Cc1ccccc1)[C@@H](O)CN1CCC[C@H]1C(F)(F)F		PBL		>1 µM
COCCOC(O)c1cnc(Nc2ccc(C#N)cc2)nc1Nc1c(C)cc(/C=C/C#N)cc1C	Y181C	MT-4		0.0138 µM
CC(C)[C@H](NC(=O)[C@H](Cc1cccc2ccccc12)CS(=O)(=O)C(C)(C)C)C(=O)N[C@@H](Cc1ccccc1)[C@@H](O)C(O)CN1CCC[C@H]1C(F)(F)F		PBL		17 µM
Nc1c2ccccc2nc2ccccc12		Jurkat cells		>50 µM
Cc1cc(/C=C/C#N)cc(C)c1Nc1nc(Nc2ccc(C#N)cc2)ncc1C(O)OCCO	Y181C	MT-4		0.00871 µM
O=CN(/C=C/c1ccc(Cl)cc1)CCNS(=O)(=O)c1cccc2cnccc12	LAI			>16.7 µM
N#Cc1cn([C@H]2C[C@H](F)[C@@H](CO)O2)c(=O)[nH]c1=O		MT-4		50 µM
Nc1nc2c(ncn2C/C=C\CO)c(=O)[nH]1		MT-4		>100 µM
Nc1ncnc2c1ncn2[C@H]1C[C@@H](O)[C@H](O)[C@@H]1O	IIIB	CEM		>4 µM
CCCc1c(SCC2CCC2)c2cc(Cl)ccc2[nH]c1=O		MT-4		0.036 µM
Cc1cc(/C=C/C#N)cc(C)c1Nc1nc(Nc2ccc(C#N)cc2)ncc1C(O)C(C)C	IIIB	MT-4		0.1 µM
Nc1nc(NC2CC2)c2ncn([C@H]3C=C[C@@H](CO)C3)c2n1				0.13 µM
c1ccc2nc3ccccc3cc2c1		Jurkat cells		>50 µM
O=c1nc(NO)ccn1[C@@H]1O[C@H](CO)C=C1Cl		MT-4		>500 µM
C=C1[C@H](CO)OC[C@@H]1n1ccc(=O)[nH]c1=O				>100 µM
CCCc1c(OCC2CC2)c2cc(Cl)ccc2[nH]c1=O	Nevirapine-resistant (RT Y181C)	MT-4	RT-Y181C	3.01 µM
CC(C)OC(O)c1cc(NC(=O)C2=C(C(F)(F)F)SCCS2)ccc1Cl				22.2 µg/mL
O=S(=O)(NCCN/C=C/c1ccccc1)c1cccc2cnccc12	LAI			>16.7 µM
O=c1ccn([C@@H]2O[C@H](CO)C=C2Cl)c(=O)[nH]1		MT-4		>500 µM
CC1CCC(C(C)C)/C(=N/NC(=S)Nc2cccc(Cl)c2)C1	IIIB	MT-4		>44.6 µg/mL
CC1CN(S(=O)(=O)c2cccc3cnccc23)CCN1	LAI			>16.7 µM
Nc1ncnc2c1ncn2C/C=C\CO		MT-4		>100 µM
CC(C)[C@@H]1CC[C@@H](C)C/C1=N\NC(N)=S	IIIB	MT-4		>12.7 µg/mL
CCc1c(C(=O)c2cc(C)cc(C)c2)n(CC2CC=CC2)c(=O)[nH]c1=O	IIIB SJ-3366 P4 (RT Y181C)		RT-Y181C	0.025 µM
[N-]=[N+]=N[C@H]1C[C@H](n2cc(Br)cnc2=O)O[C@@H]1CO		CEM-V + CEM		>94 µM
NC(=O)C[C@H](NC(=O)c1ccc2ccccc2n1)C(=O)N[C@@H](Cc1ccccc1)[C@H](O)CN1CC[C@H]2CCCC[C@H]2[C@H]1C(F)(F)F		PBL		7.8 µM
CCOC(=O)N1CCC(=C(c2cc(Cl)c(OC)c(C(=O)O)c2)c2cc(Cl)c(OC)c(C(=O)O)c2)CC1	RF	CEM + CEM-SS		88.5 µM
CCCc1c(OC2CCCC2)c2cc(Br)ccc2[nH]c1=O	Nevirapine-resistant (RT Y181C)	MT-4	RT-Y181C	1.25 µM
COC[C@@H](c1ccc(C(F)(F)F)cc1)N1CCN(C2(C)CCN(C(=O)c3c(C)ncnc3C)CC2)C[C@@H]1C	S	TZM-bl	V535	0.025 µM
C/C(=C\Cn1cc(I)c(=O)[nH]c1=O)CO				>100 µg/mL
COC(O)c1cnc(Nc2ccc(C#N)cc2)nc1Nc1c(C)cc(/C=C/C#N)cc1C	K103N + Y181C	MT-4		0.01778 µM
CCCc1c(OC2CCCC2)c2cc(OC(F)(F)F)ccc2[nH]c1=O	Nevirapine-resistant (RT Y181C)	MT-4	RT-Y181C	0.936 µM
[N-]=[N+]=N[C@H]1C[C@H](CO)S[C@@H]1n1cnc2c(Cl)ncnc21		MT-4		>100 µM
COc1cc(C[C@@H]2C(=O)N[C@@H](C(C)C)CC(=O)O[C@@H]([C@H](O)c3ccccc3)/C=C/C=C(\C)C(OC)CCC/C=C(\C)C(=O)C(C)C(=O)N2C)ccc1O	LAI	TZM-bl		0.018 µM
Cc1cn([C@@H]2S[C@@H](CO)C[C@@H]2N=[N+]=[N-])c(=O)[nH]c1=O		MT-4		>100 µM
Cc1cn([C@@H]2CC[C@H](COC(=O)CCCCCCCCC(=O)OC[C@H]3O[C@@H](n4cc(C)c(=O)[nH]c4=O)C[C@@H]3F)O2)c(=O)[nH]c1=O		PBMC		0.001 µM
CCc1c(OC#CC2CC2)c2cc(F)ccc2[nH]c1=O		MT-4		0.03 µM
CNc1ccn([C@@H]2O[C@H](CO)C=C2Cl)c(=O)n1		MT-4		>500 µM
CC(=O)N[C@@H](Cc1cccc2ccccc12)C(=O)N[C@H](C(=O)N[C@@H](CC(C)C)[C@@H](O)CC(=O)N[C@@H](CC(C)C)C(=O)N[C@@H](Cc1ccccc1)C(N)=O)C(C)C		CEM		1.09 µM
N#Cc1cc(Cl)cc(Oc2c(Br)ccc(CC(=O)Nc3ccc(S(N)(=O)=O)cc3Cl)c2F)c1		MT-4	V106A/F227C	0.173 µM
O=C1Nc2ccc(Cl)cc2[C@@](C#CC2CC2)(C(F)(F)F)N1	RF	MT-2		<0.002 µM
C/C(=C\Cn1ccc(=O)[nH]c1=O)CO				>100 µg/mL
CCC#CC1(C2CC2)NS(=O)(=O)Nc2ccc(Cl)cc21	RF	MT-2		<0.611 µM
Nc1ccn(CC=C(CO)CO)c(=O)n1				65.2 µg/mL
CC(C)OC(O)c1cc(NC(=S)C2=C(C(F)(F)F)OCCS2)ccc1Cl				>6.5 µg/mL
CC(C)C1(C#CC2CC2)NS(=O)(=O)Nc2ccc(Cl)cc21	RF	MT-2		<0.677 µM
C=C1[C@H](CO)OC[C@@H]1n1cnc2c(=O)[nH]cnc21				>100 µM
CCOC(=O)N1CCC(C(c2cc(C)c(OC)c(C(=O)OC)c2)c2cc(C)c(OC)c(C(=O)OC)c2)CC1	RF	CEM + CEM-SS		5.23 µM
C[C@H](Cn1cnc2c(N)ncnc21)OCP(=O)(O)O	IIIB	CEM + CEM-SS		0.96 µg/mL
CC1CCC(C(C)C)/C(=N/NC(=S)Nc2ccc(Cl)cc2)C1	IIIB	MT-4		>2.4 µg/mL
CCCCN1C(=O)N(Cc2ccc3[nH]nc(N)c3c2)[C@H](Cc2ccccc2)[C@H](O)[C@@H](O)[C@H]1Cc1ccccc1	RF			<0.056 µM
CC1=C(C(=O)Nc2ccc(Cl)c(C(O)OC(C)C)c2)SCCO1				>82.5 µg/mL
Cc1cn([C@@H]2CC[C@H](COC(=O)CCCCCCCCCCC(=O)OC[C@H]3O[C@@H](n4cc(C)c(=O)[nH]c4=O)C[C@@H]3N=[N+]=[N-])O2)c(=O)[nH]c1=O	IIIB	CEM		0.004 µM
Nc1ccn([C@@H]2C=C[C@H](CO)C2)c(=O)n1		PBMC		35.8 µM
O=C(NCc1ccc(F)cc1)C1C(=O)N(O)C(=O)c2ccccc21		MT-4		2.34 µM
Nc1nc2c(ncn2C/C=C\COCP(=O)(O)O)c(=O)[nH]1		MT-4		>100 µM
Nc1ncnc2c1ncn2[C@@H]1C[C@@](OCP(=O)(O)O)(c2ccccc2)[C@@H](O)[C@H]1O				80 µM
[N-]=[N+]=N[C@@H]1C[C@@H](CO)S[C@H]1n1cnc2c(Cl)ncnc21		MT-4		>100 µM
CN(C(=O)[C@H](Cc1ccccc1)NC(=O)Cc1c[nH]c2ccc(Cl)cc12)c1ccccc1	NL4-3	HeLa		0.51 µM
C#C[C@]1(CO)O[C@@H](n2cnc3c(N)nc(F)nc32)C[C@@H]1O	JR-FL			<0.001 µM
Nc1ncnc2c1ncn2[C@H]1C[C@@H](CO)[C@H](O)[C@@H]1O	LAV	PBMC		>100 µM
CC(=O)N1CCSC(C(=O)Nc2ccc(Cl)c(C(O)OC(C)C)c2)=C1C				25.7 µg/mL
C[C@]1(CO)[C@@H](Cn2cnc3c(=O)[nH]c(N)nc32)C1(F)F	RF	MT-4		>100 µM
Cc1cn([C@H]2C=C[C@@H](CO)O2)c(=O)[nH]c1=O		MT-4		0.05 µM
C=CCC1CCn2c(=O)[nH]c3cccc(c32)C1				1–2 µM
CC(C)c1c(SCC2CCC2)c2cc(F)ccc2[nH]c1=O		MT-4		0.022 µM
CNCCNS(=O)(=O)c1cccc2cnccc12	LAI			>16.7 µM
C[C@]1(CO)[C@H](Cn2cnc3c(=O)[nH]c(N)nc32)C1(F)F	RF	MT-4		>100 µM
CC(C)C(NC[C@H](O)[C@H](Cc1ccccc1)NC(=O)[C@@H](NC(=O)[C@H](Cc1cccc2ccccc12)CS(=O)(=O)C(C)(C)C)C(C)C)C(F)(F)F		PBL		17.36 µM
CC1=C(C(=S)Nc2ccc(Cl)c(C(O)OC(C)C)c2)SCCS1				>5.2 µg/mL
CC(=O)SCCOP(=O)(OCCSC(C)=O)OC[C@@H]1C=C[C@H](n2cc(C)c(=O)[nH]c2=O)O1		CEM + CEM-SS		0.006 µM
CC(=O)N[C@@H](Cc1ccccc1)C(=O)N[C@H](C(=O)N[C@@H](CC(C)C)[C@@H](O)CC(=O)N[C@@H](CC(C)C)C(=O)N[C@@H](Cc1ccccc1)C(N)=O)C(C)C		MT-2		12.6 µM
CCCc1c(SCC2CCC2)c2cc(F)ccc2[nH]c1=O	Nevirapine-resistant (RT Y181C)	MT-4	RT-Y181C	0.046 µM

7 of the rows above, restated:

structure | strain or isolate | cell line | changes | result
C/C(=C\Cn1ccc(=O)[nH]c1=O)CO |  |  |  | >100 µg/mL
COC[C@@H](c1ccc(C(F)(F)F)cc1)N1CCN(C2(C)CCN(C(=O)c3c(C)ncnc3C)CC2)C[C@@H]1C | S | TZM-bl | V535 | 0.025 µM
CC(=O)Oc1ccccc1C(=O)N(C(=S)OCCOc1ccccc1)c1ccccc1 |  |  |  | 9.5 µM
C=CCC1CCn2c(=O)[nH]c3cccc(c32)C1 |  |  |  | 1–2 µM
[N-]=[N+]=N[C@H]1C[C@H](CO)S[C@@H]1n1cnc2c(Cl)ncnc21 |  | MT-4 |  | >100 µM
CC1=C(C(=S)Nc2ccc(Cl)c(C(O)OC(C)C)c2)SCCS1 |  |  |  | >5.2 µg/mL
CC(=O)N[C@@H](Cc1cccc2ccccc12)C(=O)N[C@H](C(=O)N[C@@H](CC(C)C)[C@@H](O)CC(=O)N[C@@H](CC(C)C)C(=O)N[C@@H](Cc1ccccc1)C(N)=O)C(C)C |  | CEM |  | 1.09 µM